Anti-infective test results gathered from many reports (values: NIAID ChemDB through PubChem).

Common to all: whole-cell or culture tests; agent: HIV-1; cells: TZM-bl; measure: EC50

Blank or dashed fields: not listed here.

{"structure": "COc1cc(C[C@@H]2C(=O)N[C@@H](C(C)C)CC(=O)O[C@@H]([C@H](O)c3ccccc3)/C=C/C=C(\\C)C(OC)CCC/C=C(\\C)C(=O)C(C)C(=O)N2C)ccc1O", "strain or isolate": "LAI", "result": "0.018 µM"}
{"structure": "CCCCCCCCCCCCCCCCOC1O[C@@H](CO)[C@H](O)[C@H](O)[C@@H]1O", "strain or isolate": "89.6", "method": "luciferase", "result": "12.79 µM"}
{"structure": "Cc1cn(CC(=O)Nc2ccc([N+](=O)[O-])cn2)c(=O)[nH]c1=O", "strain or isolate": "VB59", "method": "luciferase", "result": "42.13 µM"}
{"structure": "O=C(O)C(=O)/C=C(\\O)c1cn(Cc2ccc(F)cc2)c2ccc(OCc3ccc(F)cc3)cc2c1=O", "strain or isolate": "NL4-3", "method": "p24", "result": "1 µM"}
{"structure": "O=C(Cn1ccc(=O)[nH]c1=O)Nc1ccc(Br)cn1", "strain or isolate": "ADA5", "method": "luciferase", "result": "43 µM"}
{"structure": "O=C(CCc1ccc(NC(=O)c2ccc([N+](=O)[O-])cc2)cc1)CCc1ccc(O)c(O)c1", "strain or isolate": "BaL", "method": "luciferase", "result": "42.46 µM"}
{"structure": "COc1cc(/C=C/c2cc(Cl)c3ccccc3n2)cc(OC)c1OC", "strain or isolate": "UG070", "method": "luminescence", "result": "108 µM"}
{"structure": "COc1cccc2ccc(/C=C/C(=O)Nc3ccccc3)nc12", "strain or isolate": "VB59", "method": "luminescence", "result": "24.13 µM"}
{"structure": "O=C(/C=C/c1ccc(O)c(O)c1)CCc1ccc(NC(=O)Cc2cccs2)cc1", "strain or isolate": "BaL", "method": "luciferase", "result": ">50 µM"}
{"structure": "COC(=O)c1cccc(Cn2ccc3ccc(-c4ccc5ccn(Cc6cccc(C(=O)O)c6)c5c4)cc32)c1", "strain or isolate": "HXB2", "method": "luciferase", "conditions": "pseudotyped", "result": "2 µM"}
{"structure": "CCN(CC)Cc1cnc2c(C(=O)Nc3ccc4nc[nH]c4c3)cnn2c1", "strain or isolate": "NL4-3", "method": "luciferase", "result": "5.4 µM"}
{"structure": "Cc1cn([C@H]2C[C@H](N=[N+]=[N-])[C@@H](CO)O2)c(=O)[nH]c1=O", "strain or isolate": "UG070", "method": "luminescence", "result": "0.01 µg/mL"}
{"structure": "COc1ccc(N(C)C(=O)[C@H](Cc2ccccc2)NC(=O)c2cccc(-c3cn(-c4cnc5ccccc5c4)nn3)c2)cc1", "strain or isolate": "NL4-3", "method": "MTT", "result": ">34.33 µM"}
{"structure": "O=C(CCc1ccc(NC(=O)C2CCCCC2)cc1)CCc1ccc(O)c(O)c1", "strain or isolate": "BaL", "method": "luciferase", "result": "18.34 µM"}
{"structure": "COc1ccc(NC(=O)/C=C/c2ccc3cccc(OC)c3n2)cc1", "strain or isolate": "VB59", "method": "luminescence", "result": "10.38 µM"}
{"structure": "Cc1cc(/C=C/C#N)cc(C)c1Nc1ccnc(Nc2ccc(C#N)cc2)n1", "strain or isolate": "NL4-3", "changes": "Y181C/K103N", "method": "luciferase", "result": "0.0025 µM"}
{"structure": "C[C@H]1CO[C@@H]2Cn3cc(C(=O)NCc4ccc(F)cc4F)c(=O)c(O)c3C(=O)N12", "strain or isolate": "LAI", "method": "luminescence", "result": "0.00032 µM"}
{"structure": "N=C1Sc2ccccc2C2=NCCCN12", "strain or isolate": "93IN101", "method": "β-galactosidase", "result": "1.6 µM"}
{"structure": "COCC(=O)N1CCC(c2cc(CCOc3ccccc3C(F)(F)F)[nH]n2)C1", "strain or isolate": "BaL", "method": "luciferase", "result": "2.17 µM"}
{"structure": "COc1cccc2ccc(-c3nnc(-c4ccc(N(C)C)cc4)o3)nc12", "strain or isolate": "VB59", "method": "luminescence", "result": "75.2 µM"}
{"structure": "CNC(=O)c1cc2ncn(-c3ccc(C#N)cc3)c2cc1Oc1c(C)cc(/C=C/C#N)cc1C", "strain or isolate": "NL4-3", "method": "luciferase", "result": ">220 µM"}
{"structure": "CC1(C)Oc2ccc3c(=O)cc(NCc4ccncc4)oc3c2[C@@H](OC(=O)C23CC[C@@](C)(C(=O)O2)C3(C)C)[C@H]1OC(=O)C12CC[C@](C)(C(=O)O1)C2(C)C", "strain or isolate": "RTMDR1", "method": "luciferase / fluorescence", "result": "21 µM"}
{"structure": "Clc1ccc2nc(/C=C/c3ccccc3)cc(Cl)c2c1", "strain or isolate": "UG070", "method": "luminescence", "result": "50.3 µM"}
{"structure": "CC[C@]1(CO)O[C@@H](n2cnc3c(N)ncnc32)C[C@@H]1O", "changes": "(delta)Env", "method": "luciferase", "result": "0.184 µM"}
{"structure": "Brc1cccc(N=Cc2cc3ccccc3nc2Nc2cccc(Br)c2)c1", "strain or isolate": "VB59", "method": "luminescence", "result": ">130 µM"}
{"structure": "O=C(Cn1cnc2c(Br)cccc21)Nc1ccccn1", "strain or isolate": "ADA5", "method": "luciferase", "result": "76 µM"}
{"structure": "Clc1cc(/C=C/c2ccc(N3CCCC3)cc2)nc2ccccc12", "strain or isolate": "UG070", "method": "luminescence", "result": "9.26 µM"}
{"structure": "Oc1cc(/C=C/c2cc(O)c(O)c(O)c2)cc(O)c1O", "strain or isolate": "BaL", "method": "luciferase", "result": "1.69 µM"}
{"structure": "COC[C@@H](c1ccc(C(F)(F)F)cc1)N1CCN(C2(C)CCN(C(=O)c3c(C)ncnc3C)CC2)C[C@@H]1C", "strain or isolate": "S", "result": "0.021 µM"}
{"structure": "C[C@@H]1CCO[C@H]2Cn3cc(C(=O)NCc4ccc(F)cc4F)c(=O)c(O)c3C(=O)N12", "strain or isolate": "NL4-3", "changes": "WT", "method": "luciferase", "result": "0.0008 µM"}
{"structure": "O=C(CCC(=O)Nc1ccc([N+](=O)[O-])cn1)Nc1ccc([N+](=O)[O-])cn1", "strain or isolate": "ADA5", "method": "luciferase", "result": "58.33 µM"}
{"structure": "COc1cc(-c2nnc(-c3ccc4cccc(OC)c4n3)o2)cc(OC)c1OC", "strain or isolate": "VB59", "method": "luminescence", "result": ">100 µM"}
{"structure": "N#C/C=C/c1ccc2cccc(S(=O)(=O)n3nc(Nc4ccc(C#N)c(Cl)c4)nc3N)c2c1", "strain or isolate": "IIIB", "changes": "Y181C/K103N", "method": "luciferase / RT activity", "result": "0.1934 µM"}
{"structure": "Cc1cc(/C=C/C#N)cc(C)c1Oc1cc(Nc2ccc(C#N)cc2)c(N)cc1S(N)(=O)=O", "strain or isolate": "NL4-3", "method": "luciferase", "result": "0.0937 µM"}
{"structure": "COc1ccc(/C=C/c2cc(Cl)c3cc(Cl)ccc3n2)c(OC)c1", "strain or isolate": "VB59", "method": "luminescence", "result": "0.58 µM"}
{"structure": "c1ccc2c(NC3CCNCC3)nc(NCc3ccc(CNCCCNC4CCC4)cc3)nc2c1", "strain or isolate": "IIIB", "method": "luciferase", "result": "0.1111 µM"}
{"structure": "COc1ccc(N(C)C(=O)[C@H](Cc2cc(F)cc(F)c2)NC(=O)c2cccc(-c3cn(C4CC(n5cc(C)c(=O)[nH]c5=O)OC4CO)nn3)c2)cc1", "strain or isolate": "NL4-3", "method": "MTT", "result": ">27.94 µM"}
{"structure": "COc1cc2c(=O)[nH]c(-c3ccc[nH]3)nc2c(OC)c1OC", "strain or isolate": "81A", "method": "luciferase", "result": "2.265 µM"}
{"structure": "C[C@H](Cn1cnc2c(N)ncnc21)OCP(=O)(O)O", "strain or isolate": "CH058", "method": "luciferase", "result": "0.005 µM"}
{"structure": "CCn1cc(CN2CCC(c3cc(CCOc4ccc(C(F)(F)F)cc4)[nH]n3)C2)c(C)n1", "strain or isolate": "BaL", "method": "luciferase", "result": ">100 µM"}
{"structure": "C[C@@H]1CCO[C@H]2Cn3cc(C(=O)NCc4ccc(F)cc4F)c(=O)c(O)c3C(=O)N12", "strain or isolate": "NL4-3", "method": "single cycle", "result": "0.00008 µM"}
{"structure": "COc1cccc2ccc(-c3nnc(-c4ccc5c(c4)OCO5)o3)nc12", "strain or isolate": "UG070", "method": "luminescence", "result": "135 µM"}
{"structure": "COc1cc(Br)ccc1/C=C/c1cc(Cl)c2cc(Cl)ccc2n1", "strain or isolate": "VB59", "method": "luminescence", "result": "8.31 µM"}
{"structure": "Cc1cn([C@H]2C[C@H](N=[N+]=[N-])[C@@H](CO)O2)c(=O)[nH]c1=O", "strain or isolate": "NL4-3", "method": "luciferase / luminescence", "result": "0.00825 µM"}
{"structure": "Cc1cc(C)c(Nc2ccnc(Nc3ccc(C#N)cc3)n2)c(C)c1", "method": "luciferase", "result": "0.0016 µM"}
{"structure": "Clc1cc(/C=C/c2ccc(-c3cncnc3)cc2)nc2ccccc12", "strain or isolate": "UG070", "method": "luminescence", "result": "89.3 µM"}
{"structure": "C#C[C@@]1(COP(=O)(O)OP(=O)(O)OP(=O)(O)O)C=C[C@H](n2cc(C)c(=O)[nH]c2=O)O1", "strain or isolate": "NL4-3", "changes": "T165A", "method": "luciferase", "result": "0.8 µM"}
{"structure": "CCC(=O)c1ccc(F)c([C@@H]2C[C@@H]2NC(=O)Nc2ccc(C#N)cn2)c1O", "strain or isolate": "LAI", "changes": "NNRTI-resistant (RT K103N)", "method": "β-galactosidase / luminescence", "result": "0.0234 µM"}
{"structure": "O=C1OC(CCl)(c2ccccc2)c2ccccc21", "strain or isolate": "IIIB", "method": "luciferase", "result": "15.46 µM"}
{"structure": "C[C@@H]1CCO[C@H]2Cn3cc(C(=O)NCc4ccc(F)cc4F)c(=O)c(O)c3C(=O)N12", "changes": "L74F/V75I", "method": "luciferase / luminescence", "result": "0.0008 µM"}
{"structure": "Nc1nc(Nc2ccc(Cl)cc2)nn1S(=O)(=O)c1cnn(-c2ccc(C(F)(F)F)cn2)c1", "strain or isolate": "IIIB", "method": "luciferase / RT activity", "result": "0.01446 µM"}
{"structure": "c1ccc2c(NC3CCNCC3)nc(NCc3ccc(CNCCCNC4CC4)cc3)nc2c1", "strain or isolate": "IIIB", "method": "luciferase", "result": "0.1612 µM"}
{"structure": "O=C(C1CCCCC1)N1CCC(c2cc(CCOc3cccc(C(F)(F)F)c3)[nH]n2)C1", "strain or isolate": "BaL", "method": "luciferase", "result": "2.3 µM"}
{"structure": "Cc1cn([C@H]2C[C@H](N=[N+]=[N-])[C@@H](CO)O2)c(=O)[nH]c1=O", "strain or isolate": "NL4-3", "method": "luciferase", "result": "0.00938 µM"}
{"structure": "c1ccc2c(NC3CCNCC3)nc(NCc3ccc(CNCCCNC4CCCCC4)cc3)nc2c1", "strain or isolate": "IIIB", "method": "luciferase", "result": "0.0684 µM"}
{"structure": "Cc1cc(C#N)cc(C)c1Oc1nc(Nc2ccc(C#N)cc2)nc(N)c1Br", "changes": "NL/103", "result": "0.0084 µM"}
{"structure": "COc1cc2c(cc1Cc1cccc(Cl)c1F)c(=O)c(C(=O)O)cn2[C@H](CO)C(C)C", "strain or isolate": "LAI", "method": "luminescence", "result": "0.00075 µM"}
{"structure": "Cc1ccnc2c1NC(=O)c1cccnc1N2C1CC1", "strain or isolate": "SF162", "method": "luciferase", "result": "0.03179 µM"}
{"structure": "c1ccc2c(NC3CCNCC3)nc(NCc3ccc(CNCCCN4CCNCC4)cc3)nc2c1", "strain or isolate": "IIIB", "method": "luciferase", "result": ">0.5 µM"}
{"structure": "O=C(CCC(=O)Nc1ccc(Br)cn1)Nc1ccc(Br)cn1", "strain or isolate": "IIIB", "method": "luciferase", "result": "28.03 µM"}
{"structure": "Clc1ccc2nc(/C=C/c3ccc(OCc4ccccc4)cc3)cc(Cl)c2c1", "strain or isolate": "VB59", "method": "luminescence", "result": "55.62 µM"}
{"structure": "Cc1cn(C2CC(n3nnc(C4(C(F)(F)F)OC(=O)Nc5ccc(Cl)cc54)c3C3CC3)C(CO)O2)c(=O)[nH]c1=O", "strain or isolate": "UG070", "method": "luminescence", "result": "1.22 µg/mL"}
{"structure": "Cc1c(CN2CCC(c3cc(CCOc4ccc(C(F)(F)F)cc4)[nH]n3)C2)cnn1C", "strain or isolate": "BaL", "method": "luciferase", "result": ">100 µM"}

A second listing of 5 rows from above:

structure | strain or isolate | changes | method | conditions | result
Cc1cc(/C=C/C#N)cc(C)c1Nc1ccnc(Nc2ccc(C#N)cc2)n1 | NL4-3 | Y181C/K103N | luciferase | - | 0.0025 µM
N=C1Sc2ccccc2C2=NCCCN12 | 93IN101 | - | β-galactosidase | - | 1.6 µM
O=C(CCc1ccc(NC(=O)C2CCCCC2)cc1)CCc1ccc(O)c(O)c1 | BaL | - | luciferase | - | 18.34 µM
Cc1cc(/C=C/C#N)cc(C)c1Oc1cc(Nc2ccc(C#N)cc2)c(N)cc1S(N)(=O)=O | NL4-3 | - | luciferase | - | 0.0937 µM
COc1ccc(NC(=O)/C=C/c2ccc3cccc(OC)c3n2)cc1 | VB59 | - | luminescence | - | 10.38 µM

Lines come from different laboratories, so protocols vary. ECn: concentration that inhibits the pathogen or its effect by n%.